Compound potency records, mixed from different reports. Data source: NIAID ChemDB in PubChem.

All rows: growth or infection tests; species: HIV-1; cell line: MT-4; read-out: EC50

ECn is the concentration giving n% inhibition of infection, replication or growth.

structure,strain or isolate,mutations,method,setting,result
Fc1cccc(F)c1[C@H]1SCc2nc3ccccc3n21,MN,-,cytopathic effect,-,0.14 µM
Cc1ccnc2c1NC(=O)c1cccnc1N2C1CC1,RES056,RT-K103N Y181C,MTT,-,≥7.58 µM
Cc1c(CC23CC4CC(CC(C4)C2)C3)nc(SCC(=O)Nc2ccc(C(N)=O)cc2)[nH]c1=O,RES056,-,MTT / absorbance,-,>29.15 µM
c1cc(CCNCCN2CCCC2)ccc1CCNCCN1CCCC1,NL4-3,-,MTT,-,0.51 µg/mL
O=C(N[C@H]1c2ccccc2OC[C@H]1O)[C@H](Cc1cc2cnccc2s1)C[C@H](O)CN1CCN(Cc2csc(-c3ccc(C(F)(F)F)cc3)n2)C[C@H]1C(=O)NCC(F)(F)F,4X (PR M46I L63P V82T I84V),PR-M46I L63P V82T I84V,p24,-,<0.125 µM
C1CNCCNCC(CCC2CNCCNCCCNCCNC2)CNCCNC1,RF,-,cytopathic effect / MTT,5 d,0.36 µM
Nc1nccc2c1ncn2[C@@H]1C[C@H](CO)[C@@H](O)[C@H]1O,IIIB,-,cytopathic effect / trypan blue,-,>1.1 µg/mL
CC(=O)c1ccc(CN2CCC(N=C3C=C(Cc4ccc(Cl)cc4Cl)NS(=O)(=O)N3)CC2)cc1,IIIB,-,MTT,-,≥36.24 µM
N#Cc1ccc(Nc2nc(Cc3c(Cl)cccc3Cl)nc(NO)n2)cc1,LAI WT,-,cytopathic effect / MTT,-,0.002 µM
COC(=O)[C@@H]1CCCN1P(=O)(OC[C@H]1O[C@@H](n2cc(C)c(=O)[nH]c2=O)CC1N=[N+]=[N-])Oc1ccccc1,ROD,-,MTT,-,0.898 µM
CS(=O)(=O)c1ccc(CN2CCC(N=C3C=C(Cc4ccc(Cl)cc4Cl)NS(=O)(=O)N3)CC2)cc1,RES056,RT-K103N Y181C,MTT,-,>224 µM
Cc1cn([C@H]2C=C[C@@H](CO)O2)c(=O)[nH]c1=O,NNRTI-resistant (RT K103N Y181C),RT-K103N Y181C,cytopathic effect / MTT,-,1.8 µM
C1CNCCNCCCNCCNC1,IIIB,-,cytopathic effect / MTT,-,420 µM
O=S1(=O)NC(Cc2ccc(Cl)cc2Cl)=CC(=NC2CCN(Cc3ccc(F)cc3)CC2)N1,RES056,RT-K103N Y181C,MTT,-,>103 µM
CN[C@H]1CO[C@@H]2OCC[C@H](OC(=O)N[C@@H](Cc3cccc(OC)c3)[C@H](O)CN(CC(C)C)S(=O)(=O)c3ccc4nc(NC(C)C)sc4c3)[C@@H]21,NL4-3,L10F V32I L33F M46L I54M A71V,p24 / luminescence,-,0.025 µM
Cc1c(CC23CC4CC(CC(C4)C2)C3)nc(SCC(=O)c2ccccc2)[nH]c1=O,IIIB,-,MTT / absorbance,-,1.05 µM
N#Cc1cc([C@H]2C[C@H](N=[N+]=[N-])[C@@H](CO)O2)cc(=O)[nH]1,IIIB,-,MTT,-,>478 µM
O=C1N(Cc2ccccc2)c2cscc2S(=O)(=O)N1Cc1ccccc1,ADP/141,RT-D67N K70R T215F K219Q,syncytia,-,1.8 µM
CC(C)CN(C[C@@H](O)[C@H](Cc1ccccc1)NC(=O)O[C@H]1CO[C@H]2OCC[C@H]21)S(=O)(=O)c1cccc(N)c1,PI-resistant (PR L10I M46I A71V I84V) M1,PR-L10I M46I A71V I84V,cytopathic effect / MTT,-,0.1514 µM
C1CNCCNCC(CCOCCOCCC2CNCCNCCCNCCNC2)CNCCNC1,IIIB,-,cytopathic effect / MTT,5 d,7.5 µM
COc1ccc(CN2CCC(N=C3C=C(Cc4ccc(Cl)cc4Cl)NS(=O)(=O)N3)CC2)cc1,IIIB,-,MTT,-,30.68 µM
Fc1cccc(F)c1C1SCc2nc3ccccc3n21,HE,-,cytopathic effect,-,0.52 µM
O=C(N[C@H]1c2ccccc2OC[C@H]1O)[C@H](Cc1cc2cnccc2s1)C[C@H](O)CN1CCN(Cc2ccc(-c3ccc(Cl)cc3)s2)C[C@H]1C(=O)NCC(F)(F)F,4X (PR M46I L63P V82T I84V),PR-M46I L63P V82T I84V,p24,-,<0.0156 µM
Cc1cn([C@H]2C[C@H](N=[N+]=[N-])[C@@H](CO)O2)c(=O)[nH]c1=O,IIIB,-,cytopathic effect / MTT,-,0.0032 µM
Cc1cn([C@H]2C[C@H](N=[N+]=[N-])[C@@H](COC(=O)NCCSC(=O)OC[C@H]3O[C@@H](n4cc(C)c(=O)[nH]c4=O)C[C@@H]3N=[N+]=[N-])O2)c(=O)[nH]c1=O,NNRTI-resistant (RT Y181C),RT-Y181C,cytopathic effect / MTT,-,1 µM
Cc1ccncc1-c1ccc(C[C@H](C[C@H](O)CN2CCN(C(C)(C)c3ncc(-c4ccc(Cl)cc4)s3)C[C@H]2C(=O)NCC(F)(F)F)C(=O)N[C@H]2c3ccccc3OC[C@H]2O)o1,NL4-3,-,p24,-,<0.0156 µM
CCc1c(C)[nH]c(=O)c(-n2cccc2)c1Cc1cc(C)cc(C)c1,Recombinant,RT-Y188L,cytopathic effect / MTT,-,1.995 µM
Fc1cccc(F)c1[C@@H]1SCc2nc3ccccc3n21,MN,-,cytopathic effect,-,0.9 µM
CCN[C@H]1CO[C@@H]2OCC[C@H](OC(=O)N[C@@H](Cc3cccc(OC)c3)[C@H](O)CN(CC(C)C)S(=O)(=O)c3ccc4nc(NC(C)C)sc4c3)[C@@H]21,NL4-3,L10F V32I L33F M46L I54M A71V,p24 / luminescence,-,0.0069 µM
Cc1c(CC23CC4CC(CC(C4)C2)C3)nc(SCC(=O)Nc2ccccc2)[nH]c1=O,IIIB,-,MTT / absorbance,-,>295 µM
CCN1C(=O)N(Cc2cccc(Cl)c2)S(=O)(=O)c2cscc21,ADP/141,RT-D67N K70R T215F K219Q,syncytia,-,0.6 µM
Cc1ccncc1-c1ccc(C[C@H](C[C@H](O)CN2CCN(Cc3ccc(-c4ccc(Cl)cc4)o3)C[C@H]2C(=O)NCC(F)(F)F)C(=O)N[C@H]2c3ccccc3OC[C@H]2O)o1,4X (PR M46I L63P V82T I84V),PR-M46I L63P V82T I84V,p24,-,<0.0313 µM
Cc1c(CC23CC4CC(CC(C4)C2)C3)nc(SCC(=O)Nc2ccc(S(N)(=O)=O)cc2)[nH]c1=O,IIIB,-,MTT / absorbance,-,>4.99 µM
CC(C)[C@H](NC(=O)N(C)Cc1ccccn1)C(=O)N[C@@H](Cc1ccccc1)[C@@H](O)[C@H](O)[C@H](Cc1ccccc1)NC(=O)[C@@H](NC(=O)N(C)Cc1ccccn1)C(C)C,IIIB,-,cytopathic effect / MTT,-,1.54 µM
C1CNCCNCC(CCCC2CNCCNCCCNCCNC2)CNCCNC1,IIIB,-,cytopathic effect / MTT,4 d,0.08 µM
CCc1c(CC23CC4CC(CC(C4)C2)C3)nc(SCC(=O)c2ccc(OC)cc2)[nH]c1=O,IIIB,-,MTT / absorbance,-,0.1 µM
N#CCN1C(=O)N(Cc2ccccc2)S(=O)(=O)c2cscc21,RF,-,syncytia,-,2.4 µM
N#Cc1ccc(CN2CCC(N=C3C=C(Cc4ccc(Cl)cc4Cl)NS(=O)(=O)N3)CC2)cc1,IIIB,-,MTT,-,27.02 µM
CN1C(=O)N(Cc2ccccc2)S(=O)(=O)c2cscc21,NDK,-,syncytia,-,3.9 µM
C(CCC1CNCCNCCCNCCNC1)CCC1CNCCNCCCNCCNC1,IIIB,-,cytopathic effect / MTT,4 d,0.29 µM
CCOCn1c(Cc2ccccc2)c(C(C)C)c(=O)[nH]c1=O,IIIB,-,cytopathic effect / MTT,-,0.01 µM
N#Cc1ccc(Nc2nc(N)nc(Cc3c(Cl)cccc3Cl)n2)cc1,NNRTI-resistant (RT L100I K103N),RT-L100I K103N,cytopathic effect / MTT,-,>10 µM
O=S1(=O)NC(Cc2ccc(Cl)cc2Cl)=CC(=NC2CCN(Cc3ccccc3)CC2)N1,IIIB,-,MTT,-,26.97 µM
Cc1cc(C)cc(Cc2c(CC(C)C)c(C)[nH]c(=O)c2N(C)C)c1,LAI,-,cytopathic effect / MTT,-,0.016 µM
CC(C)CN(C[C@@H](O)[C@H](Cc1ccccc1)NC(=O)O[C@H]1CCO[C@H]2OCC[C@H]21)S(=O)(=O)c1ccc2nc(NC3CC3)sc2c1,NL4-3,L10F K20T D30N K45I A71V V77I,p24 / luminescence,-,0.0016 µM
Cc1cc(C#N)cc(C)c1Oc1nc(Nc2ccc(C#N)cc2)nc(N)c1Br,-,L100I,MTT,-,0.006 µM
O=C1CCNCCNCCCNCCN1,IIIB,-,cytopathic effect / MTT,-,>280 µM
COC(=O)N[C@H](C(=O)N[C@@H](Cc1ccccc1)[C@@H](O)CN(Cc1ccc(-c2ccccn2)cc1)NC(=O)[C@@H](NC(=O)OC)C(C)(C)C)C(C)(C)C,NL4-3,-,p24 / luminescence,-,0.0047 µM
Nc1nccc2c1ncn2[C@@H]1C=C[C@@H](O)[C@H]1O,IIIB,-,cytopathic effect / trypan blue,-,>3.3 µg/mL
Cc1ccncc1-c1ccc(C[C@H](C[C@H](O)CN2CCN(Cc3ccc(-c4ccc(Cl)cc4)s3)C[C@H]2C(=O)NCC(F)(F)F)C(=O)N[C@H]2c3ccccc3OC[C@H]2O)o1,4X (PR M46I L63P V82T I84V),PR-M46I L63P V82T I84V,p24,-,<0.0156 µM

The first 7 rows once more:

Fc1cccc(F)c1[C@H]1SCc2nc3ccccc3n21 ; strain or isolate: MN ; method: cytopathic effect ; result: 0.14 µM
Cc1ccnc2c1NC(=O)c1cccnc1N2C1CC1 ; strain or isolate: RES056 ; mutations: RT-K103N Y181C ; method: MTT ; result: ≥7.58 µM
Cc1c(CC23CC4CC(CC(C4)C2)C3)nc(SCC(=O)Nc2ccc(C(N)=O)cc2)[nH]c1=O ; strain or isolate: RES056 ; method: MTT / absorbance ; result: >29.15 µM
c1cc(CCNCCN2CCCC2)ccc1CCNCCN1CCCC1 ; strain or isolate: NL4-3 ; method: MTT ; result: 0.51 µg/mL
O=C(N[C@H]1c2ccccc2OC[C@H]1O)[C@H](Cc1cc2cnccc2s1)C[C@H](O)CN1CCN(Cc2csc(-c3ccc(C(F)(F)F)cc3)n2)C[C@H]1C(=O)NCC(F)(F)F ; strain or isolate: 4X (PR M46I L63P V82T I84V) ; mutations: PR-M46I L63P V82T I84V ; method: p24 ; result: <0.125 µM
C1CNCCNCC(CCC2CNCCNCCCNCCNC2)CNCCNC1 ; strain or isolate: RF ; method: cytopathic effect / MTT ; setting: 5 d ; result: 0.36 µM
Nc1nccc2c1ncn2[C@@H]1C[C@H](CO)[C@@H](O)[C@H]1O ; strain or isolate: IIIB ; method: cytopathic effect / trypan blue ; result: >1.1 µg/mL

Blank or dashed fields: not listed here. Conditions beyond the fields shown may differ between rows.